Results on one compound are retold here after publication PMC10301793 (Marine Drugs, 2023).

Protein sequences, listed by entry. Tags and fused reporters are not part of them. Residues count along the entry.
UniProt P09483, 31-630 limits assumed: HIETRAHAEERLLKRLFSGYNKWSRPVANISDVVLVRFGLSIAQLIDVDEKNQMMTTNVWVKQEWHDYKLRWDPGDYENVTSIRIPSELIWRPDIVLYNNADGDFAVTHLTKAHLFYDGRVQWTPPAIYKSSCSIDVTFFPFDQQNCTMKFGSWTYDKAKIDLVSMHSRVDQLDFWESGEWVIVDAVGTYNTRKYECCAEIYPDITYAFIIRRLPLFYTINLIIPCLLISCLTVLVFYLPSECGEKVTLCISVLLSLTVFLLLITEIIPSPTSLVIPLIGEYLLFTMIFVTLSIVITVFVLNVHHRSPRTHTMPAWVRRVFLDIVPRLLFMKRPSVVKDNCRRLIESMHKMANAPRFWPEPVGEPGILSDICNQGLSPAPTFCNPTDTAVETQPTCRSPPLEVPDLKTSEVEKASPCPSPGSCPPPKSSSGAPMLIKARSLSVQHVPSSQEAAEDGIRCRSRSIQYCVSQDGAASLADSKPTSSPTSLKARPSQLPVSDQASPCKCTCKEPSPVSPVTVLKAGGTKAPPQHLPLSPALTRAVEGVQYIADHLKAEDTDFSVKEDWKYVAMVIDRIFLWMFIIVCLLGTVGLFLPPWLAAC
UniProt P12392, 21-495 limits assumed: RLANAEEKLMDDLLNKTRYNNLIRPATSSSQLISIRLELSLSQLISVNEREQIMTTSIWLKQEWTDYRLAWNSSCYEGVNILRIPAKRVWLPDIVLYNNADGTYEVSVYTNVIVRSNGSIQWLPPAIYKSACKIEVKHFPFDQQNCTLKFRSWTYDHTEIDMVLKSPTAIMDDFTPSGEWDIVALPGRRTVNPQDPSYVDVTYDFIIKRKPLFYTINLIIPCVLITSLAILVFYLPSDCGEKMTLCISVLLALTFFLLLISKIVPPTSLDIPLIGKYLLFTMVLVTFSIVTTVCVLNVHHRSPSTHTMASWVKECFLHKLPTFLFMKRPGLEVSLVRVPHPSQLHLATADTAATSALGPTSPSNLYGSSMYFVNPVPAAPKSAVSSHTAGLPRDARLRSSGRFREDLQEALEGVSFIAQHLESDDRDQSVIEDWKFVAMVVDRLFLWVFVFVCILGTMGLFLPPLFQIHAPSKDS
UniProt P12392, whole entry, looked up: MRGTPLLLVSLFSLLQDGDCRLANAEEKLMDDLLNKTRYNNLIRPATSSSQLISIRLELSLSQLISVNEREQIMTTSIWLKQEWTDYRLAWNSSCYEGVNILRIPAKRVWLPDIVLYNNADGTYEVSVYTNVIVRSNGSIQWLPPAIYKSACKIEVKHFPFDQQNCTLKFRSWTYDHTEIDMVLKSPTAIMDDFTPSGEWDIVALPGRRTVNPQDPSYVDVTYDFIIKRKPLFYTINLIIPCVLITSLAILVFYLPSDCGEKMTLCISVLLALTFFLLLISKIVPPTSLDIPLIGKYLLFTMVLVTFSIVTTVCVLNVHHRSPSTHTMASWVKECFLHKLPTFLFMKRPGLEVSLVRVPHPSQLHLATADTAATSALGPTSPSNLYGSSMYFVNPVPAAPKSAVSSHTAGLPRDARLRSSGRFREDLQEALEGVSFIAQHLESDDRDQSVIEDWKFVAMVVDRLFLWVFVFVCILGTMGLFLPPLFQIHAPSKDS
UniProt P12389, 28-511 limits assumed: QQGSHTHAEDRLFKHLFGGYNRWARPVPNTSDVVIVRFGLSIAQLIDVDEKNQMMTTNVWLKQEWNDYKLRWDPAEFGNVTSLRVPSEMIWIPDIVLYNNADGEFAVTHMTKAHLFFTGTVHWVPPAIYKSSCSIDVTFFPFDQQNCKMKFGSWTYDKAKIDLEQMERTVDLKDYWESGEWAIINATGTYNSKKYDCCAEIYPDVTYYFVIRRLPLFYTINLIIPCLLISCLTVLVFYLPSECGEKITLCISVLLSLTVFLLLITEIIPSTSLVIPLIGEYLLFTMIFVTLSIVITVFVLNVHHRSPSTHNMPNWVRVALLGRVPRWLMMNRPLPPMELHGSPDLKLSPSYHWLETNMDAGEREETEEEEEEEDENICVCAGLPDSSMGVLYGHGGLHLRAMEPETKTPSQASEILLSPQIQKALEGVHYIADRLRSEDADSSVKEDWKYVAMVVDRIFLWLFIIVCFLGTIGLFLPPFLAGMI
UniProt P12390, 25-500 limits assumed: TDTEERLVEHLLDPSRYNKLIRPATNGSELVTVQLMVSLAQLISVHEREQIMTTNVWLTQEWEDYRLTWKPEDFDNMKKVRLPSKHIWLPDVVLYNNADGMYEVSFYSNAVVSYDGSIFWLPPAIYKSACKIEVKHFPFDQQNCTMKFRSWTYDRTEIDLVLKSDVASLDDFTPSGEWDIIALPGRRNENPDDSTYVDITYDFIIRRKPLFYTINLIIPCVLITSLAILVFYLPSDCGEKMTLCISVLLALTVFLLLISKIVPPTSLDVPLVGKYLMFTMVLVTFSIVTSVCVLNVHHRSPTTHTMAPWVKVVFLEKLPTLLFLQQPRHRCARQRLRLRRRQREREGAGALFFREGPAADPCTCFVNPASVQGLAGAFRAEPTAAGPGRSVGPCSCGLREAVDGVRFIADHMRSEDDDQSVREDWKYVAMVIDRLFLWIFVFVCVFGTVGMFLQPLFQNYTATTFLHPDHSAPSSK
UniProt P12390, whole entry, looked up: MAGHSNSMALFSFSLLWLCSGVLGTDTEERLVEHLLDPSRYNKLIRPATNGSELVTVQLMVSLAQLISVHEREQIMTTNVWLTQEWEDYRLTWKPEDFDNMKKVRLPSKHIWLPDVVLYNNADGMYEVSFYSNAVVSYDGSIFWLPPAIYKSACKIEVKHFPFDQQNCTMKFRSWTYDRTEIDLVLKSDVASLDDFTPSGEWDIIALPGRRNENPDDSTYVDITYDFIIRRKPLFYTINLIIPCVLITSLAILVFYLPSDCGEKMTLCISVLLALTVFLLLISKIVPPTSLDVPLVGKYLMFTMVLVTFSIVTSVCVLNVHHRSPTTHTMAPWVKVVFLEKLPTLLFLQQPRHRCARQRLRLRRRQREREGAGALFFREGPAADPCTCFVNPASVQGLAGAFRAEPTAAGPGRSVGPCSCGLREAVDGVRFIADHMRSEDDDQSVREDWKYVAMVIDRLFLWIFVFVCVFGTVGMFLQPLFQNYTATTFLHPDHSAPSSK
UniProt P04757, 26-499 limits assumed: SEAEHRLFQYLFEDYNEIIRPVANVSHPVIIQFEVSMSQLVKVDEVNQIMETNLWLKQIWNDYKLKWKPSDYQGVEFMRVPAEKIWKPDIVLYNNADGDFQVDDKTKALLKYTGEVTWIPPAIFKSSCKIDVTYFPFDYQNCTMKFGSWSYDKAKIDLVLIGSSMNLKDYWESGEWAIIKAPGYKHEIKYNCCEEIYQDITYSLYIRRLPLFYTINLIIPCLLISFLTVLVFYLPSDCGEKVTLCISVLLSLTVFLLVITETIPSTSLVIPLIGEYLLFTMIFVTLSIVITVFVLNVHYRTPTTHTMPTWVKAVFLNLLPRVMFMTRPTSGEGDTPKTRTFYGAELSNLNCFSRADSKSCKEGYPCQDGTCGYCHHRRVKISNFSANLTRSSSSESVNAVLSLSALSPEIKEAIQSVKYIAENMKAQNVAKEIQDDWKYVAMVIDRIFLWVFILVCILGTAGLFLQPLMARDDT
UniProt P04757, whole entry, looked up: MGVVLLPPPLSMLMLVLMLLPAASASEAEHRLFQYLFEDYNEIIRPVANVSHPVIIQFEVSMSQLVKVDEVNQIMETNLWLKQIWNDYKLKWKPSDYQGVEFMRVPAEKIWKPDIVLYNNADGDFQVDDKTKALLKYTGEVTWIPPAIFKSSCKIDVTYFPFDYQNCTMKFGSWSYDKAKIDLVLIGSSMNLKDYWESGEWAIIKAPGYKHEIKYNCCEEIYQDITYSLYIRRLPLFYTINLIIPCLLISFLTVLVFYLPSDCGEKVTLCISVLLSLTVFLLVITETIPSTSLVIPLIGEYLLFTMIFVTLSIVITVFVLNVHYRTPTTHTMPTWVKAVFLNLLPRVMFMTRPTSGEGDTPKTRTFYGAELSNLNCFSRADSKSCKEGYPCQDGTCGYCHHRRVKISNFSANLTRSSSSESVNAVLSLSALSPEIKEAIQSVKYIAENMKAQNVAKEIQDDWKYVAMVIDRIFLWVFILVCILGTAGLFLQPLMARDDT
UniProt P43143, whole entry M241L/F253L/V303I/V320I/I327V/A333T/K339T, looked up: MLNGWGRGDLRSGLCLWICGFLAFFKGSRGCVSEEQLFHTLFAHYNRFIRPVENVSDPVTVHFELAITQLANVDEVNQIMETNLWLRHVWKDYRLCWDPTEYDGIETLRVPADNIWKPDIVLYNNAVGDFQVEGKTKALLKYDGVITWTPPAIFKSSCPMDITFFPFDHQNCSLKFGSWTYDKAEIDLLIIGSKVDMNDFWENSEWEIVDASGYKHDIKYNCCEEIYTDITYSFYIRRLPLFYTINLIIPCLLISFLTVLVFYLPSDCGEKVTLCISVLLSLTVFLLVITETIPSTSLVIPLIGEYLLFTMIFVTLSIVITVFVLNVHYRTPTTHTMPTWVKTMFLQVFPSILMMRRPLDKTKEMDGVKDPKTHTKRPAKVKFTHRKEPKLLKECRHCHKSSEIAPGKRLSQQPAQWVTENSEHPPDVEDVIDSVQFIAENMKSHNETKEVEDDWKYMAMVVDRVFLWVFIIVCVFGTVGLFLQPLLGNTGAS
UniProt P12391, whole entry, looked up: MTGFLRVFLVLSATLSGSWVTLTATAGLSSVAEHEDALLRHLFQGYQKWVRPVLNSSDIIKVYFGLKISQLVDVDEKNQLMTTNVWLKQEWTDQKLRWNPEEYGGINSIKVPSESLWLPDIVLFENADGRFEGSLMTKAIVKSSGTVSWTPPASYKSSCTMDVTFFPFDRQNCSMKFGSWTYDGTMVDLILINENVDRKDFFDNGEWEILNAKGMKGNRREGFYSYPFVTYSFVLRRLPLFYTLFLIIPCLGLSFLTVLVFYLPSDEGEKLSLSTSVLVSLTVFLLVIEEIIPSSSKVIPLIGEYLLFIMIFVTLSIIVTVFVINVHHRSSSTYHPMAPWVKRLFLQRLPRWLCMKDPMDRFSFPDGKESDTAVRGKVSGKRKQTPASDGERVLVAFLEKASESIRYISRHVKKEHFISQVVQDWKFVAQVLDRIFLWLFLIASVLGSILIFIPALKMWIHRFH
UniProt Q05941, 23-502 limits assumed: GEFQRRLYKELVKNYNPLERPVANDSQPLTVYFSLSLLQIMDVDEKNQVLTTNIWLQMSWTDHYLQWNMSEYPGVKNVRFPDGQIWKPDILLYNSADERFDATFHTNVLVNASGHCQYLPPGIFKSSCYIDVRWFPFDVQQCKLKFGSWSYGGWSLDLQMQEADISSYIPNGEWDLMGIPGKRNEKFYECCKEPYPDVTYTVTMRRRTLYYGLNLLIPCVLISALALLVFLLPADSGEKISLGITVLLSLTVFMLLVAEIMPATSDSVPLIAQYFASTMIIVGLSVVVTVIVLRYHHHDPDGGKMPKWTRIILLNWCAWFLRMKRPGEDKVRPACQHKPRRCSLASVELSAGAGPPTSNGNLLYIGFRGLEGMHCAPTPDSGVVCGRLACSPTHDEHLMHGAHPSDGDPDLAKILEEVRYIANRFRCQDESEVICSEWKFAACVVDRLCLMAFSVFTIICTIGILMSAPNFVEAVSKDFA

One may read the IC50 as the concentration at which inhibition is half-maximal.

What all share (assay): two-electrode voltage clamp, inhibition of ACh responses in Xenopus oocytes
(In general: In two-electrode clamp one electrode senses voltage and the other passes current.)

Assay [1] has as its target muscle-type nAChR α1β1γδ (αβγδ) (Rattus norvegicus, UniProt P18916+P25108+P25109+P25110).
The target in assay [2] is α4β4 nAChR (Rattus norvegicus, UniProt P09483+P12392). Format: cell-based. The following applies: rat α4β4 in Xenopus laevis oocytes; TEVC −70 mV; 100 μM ACh 2-s pulses; 3-min preincubation; ND96 pH 7.4; mean of at least three to four measurements, oocytes from at least two frogs; Hill fit.
The target in assay [3] is α2β2 nAChR (Rattus norvegicus, UniProt P12389+P12390). It counts as cell-based. The following applies: rat α2β2 in Xenopus laevis oocytes; TEVC −70 mV; 100 μM ACh 2-s pulses; 3-min preincubation; ND96 pH 7.4; mean of at least three to four measurements, oocytes from at least two frogs; Hill fit.
In assay [4] the target is α6/α3β4 nAChR (Rattus norvegicus, UniProt P04757+P12392+P43143). Format: cell-based. Particulars: rat α6/α3β4 (α6/α3 chimera) in Xenopus laevis oocytes; TEVC −70 mV; 100 μM ACh 2-s pulses; 3-min preincubation; ND96 pH 7.4; mean of at least three to four measurements, oocytes from at least two frogs; Hill fit.
Assay [5] has as its target α3β2 nAChR (Rattus norvegicus, UniProt P04757+P12390). Format: cell-based. The following applies: rat α3β2 in Xenopus laevis oocytes; TEVC −70 mV; 100 μM ACh 2-s pulses; 3-min preincubation; ND96 pH 7.4; mean of at least three to four measurements, oocytes from at least two frogs; Hill fit.
The target in assay [6] is α6/α3β2β3 nAChR (Rattus norvegicus, UniProt P04757+P12390+P12391+P43143). Format: cell-based. The following applies: rat α6/α3β2β3 (α6/α3 chimera) in Xenopus laevis oocytes; TEVC −70 mV; 100 μM ACh 2-s pulses; 3-min preincubation; ND96 pH 7.4; mean of at least three to four measurements, oocytes from at least two frogs; Hill fit.
The target of assay [7] is α7 nAChR (Rattus norvegicus, UniProt Q05941). Format: cell-based. Particulars: rat α7 in Xenopus laevis oocytes; TEVC −70 mV; 100 μM ACh 2-s pulses; 3-min preincubation; ND96 pH 7.4; mean of at least three to four measurements, oocytes from at least two frogs; Hill fit.
Assay [8] has as its target α3β4 nAChR (Rattus norvegicus, UniProt P04757+P12392). Format: cell-based. Particulars: rat α3β4 in Xenopus laevis oocytes; TEVC −70 mV; 100 μM ACh 2-s pulses; 3-min preincubation; ND96 pH 7.4; mean of at least three to four measurements, oocytes from at least two frogs; Hill fit.
Assay [9] addresses α4β2 nAChR (Rattus norvegicus, UniProt P09483+P12390). Format: cell-based. Particulars: rat α4β2 in Xenopus laevis oocytes; TEVC −70 mV; 100 μM ACh 2-s pulses; 3-min preincubation; ND96 pH 7.4; mean of at least three to four measurements, oocytes from at least two frogs; Hill fit.

Only a part of the results on these compounds is given; other tests are left out.

For the compound `C[C@@H]1NC(=O)[C@@H]2CCCN2C(=O)[C@H](Cc2c[nH]cn2)NC(=O)[C@@H]2CSSC[C@@H](C(N)=O)NC(=O)[C@H](CC(N)=O)NC(=O)[C@H](Cc3ccc(O)cc3)NC(=O)[C@H](CCCCN)NC(=O)[C@H](CCCNC(=N)N)NC(=O)CNC(=O)[C@H](CSSC[C@H](NC(=O)[C@H](CCCNC(=N)N)NC(=O)CN)C(=O)N2)NC1=O` [GaIA], the IC50 in assay [1] (rat muscle α1β1γδ in Xenopus laevis oocytes, TEVC −70 mV, 100 μM ACh 2-s pulses, 3-min preincubation, ND96 pH 7.4, mean of at least three to four measurements, oocytes from at least two frogs, Hill fit) was 0.0384 µM; in assay [2] it was 49.4 µM; in assay [3], 6.47 µM; in [4], 18.2 µM; in assay [5], 0.989 µM; in assay [6], 1.17 µM. In addition, the figures for the IC50 in [7], in assay [8] and in assay [9] were 5.16 µM, 7.91 µM and 3.93 µM, respectively. In assay [1] (rat αβγδ, four-parameter logistic fit, plateaus constrained to 100% and 0%), the “Hill Slope” value is −1.23.
